Measured values as given in patent publication US10307403B2, “Polymorphic forms and process” (GALECTO BIOTECH AB, priority 2015, dated 2019).

Test: Microbial limits within ICH stability study

With `OC[C@H]1O[C@@H](S[C@@H]2O[C@H](CO)[C@H](O)[C@H](n3cc(-c4cccc(F)c4)nn3)[C@H]2O)[C@H](O)[C@@H](n2cc(-c3cccc(F)c3)nn2)[C@H]1O` [Form 1, 3,3′-Dideoxy-3,3′-bis-[4-(3-fluorophenyl)-1H-1,2,3-triazol-1-yl]-1,1′-sulfanediyl-di-β-D-galactopyranoside] the “Microbial Limits Bile-tolerant gram-negative bacteria” value (6 Months @ 40° C./75 RH) was “absent/g”, the “Microbial Limits TAMC” value (6 Months @ 40° C./75 RH) was less than 10 cfu/g and the “Microbial Limits TYMC” value (6 Months @ 40° C./75 RH) was less than 10 cfu/g. For the same molecule, the “Microbial Limits Bile-tolerant gram-negative bacteria” value (12 Months 25° C./60 RH) was “absent/g”, the “Microbial Limits TAMC” value (12 Months 25° C./60 RH) was less than 10 cfu/g and the “Microbial Limits TYMC” value (12 Months 25° C./60 RH) was less than 10 cfu/g. For the same molecule, the “Microbial Limits TYMC” value (Initial, criterion NMT 10 cfu/g) was less than 10 cfu/g, the “Microbial Limits TAMC” value (Initial, criterion NMT 100 cfu/g) was less than 10 cfu/g and the “Microbial Limits Bile-tolerant gram-negative bacteria” value (Initial, criterion absent in 1 g) was “absent/g”.
